Reference: publication PMC8809408 (Frontiers in Pharmacology, 2022)

Test system: pseudotyped viruses harboring glycoprotein of vesicular stomatitis virus (VSV)
Assay type: cell-based

Row | SMILES | luciferase activity (infection by VSV-G pseudotyped viruses)
1 | CN(C)CCCN1c2ccccc2Sc2ccc(Cl)cc21 [Chlorpromazine] | reduced the infection
2 | CNCCCN1c2ccccc2CCc2ccccc21 [Desipramine] | remained ineffective
3 | O=c1[nH]c2ccccc2n1C1CCN(CCCC(c2ccc(F)cc2)c2ccc(F)cc2)CC1 [Pimozide] | reduced the infection
